Compound potency records, mixed from different reports. Data source: NIAID ChemDB in PubChem.

All rows: growth or infection tests; organism: Human cytomegalovirus; cell line: HEL; endpoint: EC50

Blank or dashed fields: not listed here.

| SMILES | strain or isolate | method | result |
|---|---|---|---|
| O=C1c2ccccc2C(=O)N1C12CC3CC(CC(C3)C1)C2 | DAVIS | plaque count | >100 µg/mL |
| Cc1ccccc1CSCc1cnc2c(Br)cc(Br)c(C)n12 | DAVIS | plaque count | >50 µg/mL |
| Cc1cccn2c(C3OCCO3)cnc12 | AD169 |  | >116 µM |
| Nc1nc2c(ncn2COC(CO)CO)c(=O)[nH]1 | AD169 | cytopathic effect | 1.75 µM |
| CO[C@H](CO)[C@@H](O)CCn1cnc2c(N)ncnc21 | DAVIS | cytopathic effect | >400 µg/mL |
| CO[C@@H]1[C@H](O)[C@@H](CO)O[C@H]1c1ccccc1 | AD169 | plaque count | >50 µg/mL |
| Nc1nc2c(ncn2COC(CO)CO)c(=O)[nH]1 | AD169 | plaque count / crystal violet | 0.16 µg/mL |
| CO[C@H](CO)[C@@H](O)CCn1ccc(N)nc1=O | DAVIS | cytopathic effect | >400 µg/mL |
| CC(C)(C)[Si](OC[C@H]1C[C@@H](Cn2cnc3c(Cl)nc(N)nc32)c2cn(Cc3ccccc3)nc21)(c1ccccc1)c1ccccc1 | DAVIS |  | 0.39 µM |
| Nc1cc2c(=O)c(C(=O)O)cn(C3CC3)c2cc1N1CCN(c2cccc(C(F)(F)F)c2)CC1 | AD169 | plaque count | 0.86 µg/mL |
| Cc1c(S(=O)(=O)c2ccc(Cl)cc2)c(NC(=O)C(F)(F)F)n(Cc2ccc(Cl)cc2)c1C | AD169 | cytopathic effect | 0.5 µg/mL |
| Nc1nccc2c1ncn2C[C@@H](CO)OCP(=O)(O)O | AD169 | plaque count | 0.18 µM |
| CC(=O)OC[C@H]1O[C@@H](c2ccccc2)C[C@@H]1OC(C)=O | DAVID | plaque count | >100 µg/mL |
| CCCCCCCC#Cc1c[nH]c(=O)[nH]c1=O | DAVIS | cytopathic effect | >80 µM |
| Cc1ccc(/C=N/NC(=O)c2ccccc2S(=O)(=O)NC(C)C)cc1 | AD169 | plaque count | >100 µM |
| Cc1ccc(CSCc2cnc3c(Br)cc(Br)c(C)n23)cc1 | DAVIS | plaque count | >50 µg/mL |
| O=c1[nH]cnc2c1ncn2C1C[C@H](CO)[C@@H](CO)C1 | AD169 |  | >100 µg/mL |
| Cc1c(Br)cc(Br)c2ncc(CSCCCc3ccccc3)n12 | DAVIS | plaque count | 2.3 µg/mL |
| Cc1ccn2c(C3OCCO3)cnc2c1 | DAVIS |  | >116 µM |
| Cc1c(Br)cc(Br)c2ncc(CSCCc3ccccc3)n12 | DAVIS | plaque count | 2.3 µg/mL |
| C/C(=N/Nc1nc(-c2ccc(Br)cc2)cs1)c1ccc(NC(=O)CN2C(=O)c3ccccc3S2(=O)=O)cc1 | DAVIS | plaque count | 20 µM |
| CCCCC#Cc1cn(S(=O)(=O)c2ccc(C)cc2)c(=O)[nH]c1=O | DAVIS | cytopathic effect | >16 µM |
| Cc1cccn2c(C3OCCS3)cnc12 | AD169 |  | 63 µM |
| CCCCCCCCCCC#Cc1c[nH]c(=O)[nH]c1=O | DAVIS | cytopathic effect | >80 µM |
| Cc1c(Br)cc(Br)c2ncc(CSC(C)c3cccs3)n12 | AD169 | plaque count | >50 µg/mL |
| OC[C@H]1O[C@@H](c2cc(I)c(F)cc2F)C[C@@H]1O | DAVIS | cytopathic effect | >200 µM |
| Nc1ccn(C[C@@H](CO)OCP(=O)(O)O)c(=O)n1 | DAVIS | plaque count | 0.15 µg/mL |
| N#CC1C(c2ccccc2)Nc2sccc2S1(=O)=O | AD169 | cytopathic effect | 50 µg/mL |
| Nc1nc2c(ncn2CCCCO)c(=O)[nH]1 | AD169 |  | 250 µM |
| O=c1[nH]c(=O)n([C@H]2C[C@H](O)[C@@H](CO)O2)cc1/C=C/Br | DAVIS | cytopathic effect | >50 µM |
| COc1ccc(/C=N/NC(=O)c2ccccc2S(=O)(=O)NC(C)C)cc1 | DAVIS | plaque count | >100 µM |
| CC1=CC(CO)(CO)C[C@H]1n1ccc(N)nc1=O | AD169 | cytopathic effect | >100 µg/mL |
| Nc1ccn(C[C@H]2COP(=O)(O)CO2)c(=O)n1 | DAVIS | plaque count | 1 µg/mL |
| Cc1cc([C@@H]2C[C@H](O)[C@@H](CO)O2)c(F)cc1F | AD169 | cytopathic effect | >200 µM |
| C/C(=N/NC(N)=S)c1ccc(NC(=O)CN2C(=O)c3ccccc3S2(=O)=O)cc1 | DAVIS | plaque count | >100 µM |
| NC(=O)c1c(Cl)c(-c2cccnc2)n2c1CCCC2 | Acyclovir-resistant | plaque count | 0.18 µM |
| COC(=O)/C1=C/CC[C@](C)(O)[C@@H]2CC[C@@](C)(O2)C2C(=O)C(=C(C)[C@H]2O)CC1 |  |  | 20 µg/mL |
| Nc1ncnc2c1ncn2[C@@H]1C=C(CO)[C@@H](O)[C@H]1O | AD169 | plaque count | 0.53 µg/mL |
| Nc1cc([C@H]2C[C@H](O)[C@@H](CO)O2)c(F)cc1F | DAVIS | cytopathic effect | >200 µM |
| O=c1[nH]c(=O)n([C@@H]2O[C@H](CO)[C@@H](O)[C@@H]2O)cc1/C=C/Br | AD169 | plaque count / crystal violet | 69.9 µg/mL |
| Nc1ccn([C@@H]2C=C(CO)[C@@H](O)[C@H]2O)c(=O)n1 | DAVIS | plaque count | 0.2 µg/mL |
| Nc1nccc2c1ncn2[C@@H]1C[C@H](CO)[C@@H](O)[C@H]1O | DAVIS | cytopathic effect | 7 µg/mL |
| COC(=O)C12CC3CC(C1)CC(N1C(=O)c4ccccc4C1=O)(C3)C2 | DAVIS | plaque count | >20 µg/mL |
| Nc1ccn(C[C@@H](CO)OCP(=O)(O)O)c(=O)n1 | Clinical isolates | plaque count | 0.25 µM |
| O=c1ccn([C@@H]2C[C@H](CO)C[C@H]2CO)c(=O)[nH]1 | AD169 |  | >100 µg/mL |
| CCCCC#Cc1c[nH]c(=O)[nH]c1=O | DAVIS | cytopathic effect | >400 µM |
| C=CCO[C@@H]1[C@@H](OCC=C)[C@H](Cc2ccccc2)O[C@@H]2CO[C@@H](c3ccccc3)O[C@@H]12 | DAVIS | plaque count | >2 µg/mL |
| Nc1ccn(CCCC(O)CF)c(=O)n1 | AD169 | cytopathic effect | 15 µg/mL |
| OC[C@H]1CC(n2cnc3c(NC4CC4)ncnc32)C[C@@H]1CO | AD169 |  | >100 µg/mL |
| OC[C@H]1O[C@@H](c2ccccc2)[C@H](O)[C@@H]1O | AD169 | plaque count | >50 µg/mL |
| Cc1ccc(C)c(NC(=O)CN2C(=O)c3ccccc3S2(=O)=O)c1 | AD169 | plaque count | >100 µM |
| Nc1nc2c(ncn2CC[C@@H](O)CO)c(=O)[nH]1 | AD169 | antigen | 50 µM |
| CC(C)NS(=O)(=O)c1ccccc1C(=O)NNC(=O)c1ccc(Cl)cc1 | AD169 | plaque count | >100 µM |
| Nc1ncnc2c1ncn2C[C@H]1COP(=O)(O)CO1 | AD169 | plaque count | 0.23 µM |
| CC1=CC(CO)(CO)C[C@H]1n1cnc2c(N)ncnc21 | AD169 | cytopathic effect | >100 µg/mL |
| Nc1cc(OCCOCP(=O)(O)O)nc(N)n1 | DAVIS | cytopathic effect | >190 µM |
| Nc1nc2c(ncn2COC(CO)CO)c(=O)[nH]1 | U 9070 | plaque count | 10.8 µg/mL |
| O=C1c2ccccc2C(=O)N1CC12CC3CC(CC(C3)C1)C2 | AD169 | plaque count | >100 µg/mL |
| Nc1ncnc2c1ncn2CC[C@H](O)CCO | AD169 | cytopathic effect | >400 µg/mL |
| C/C(=N/Nc1nc(-c2ccc(Cl)cc2)cs1)c1ccc(NC(=O)CN2C(=O)c3ccccc3S2(=O)=O)cc1 | AD169 | plaque count | 20 µM |
| O=C1c2ccccc2C(=O)N1C12CC3CC(CC(C(=O)O)(C3)C1)C2 | DAVIS | plaque count | >100 µg/mL |
| Cc1cn([C@@H]2OC(O[Si](C)(C)C(C)(C)C)C3(OS(=O)(=O)C=C3NCCC(=O)OCc3ccccc3)C2O[Si](C)(C)C(C)(C)C)c(=O)n(C)c1=O | DAVIS | plaque count | >400 µM |
| Cn1cc(C(=O)O)c(=O)c2cc(N)c(N3CCN(c4nccs4)CC3)cc21 | AD169 | plaque count | 2.6 µg/mL |
| Nc1nc2c(ncn2CC(CO)OCP(=O)(O)O)c(=O)[nH]1 | AD169 | plaque count | 1 µg/mL |
| O=C1c2ccccc2C(=O)N1C1CC2CC3CC(C2)CC1C3 | AD169 | plaque count | >100 µg/mL |
| Nc1cc(OC[C@H](CO)OCP(=O)(O)O)nc(N)n1 | AD169 | cytopathic effect | 130 µM |
| O=C1c2ccccc2C(=O)N1[C@@H]1CC2CC3CC(C2)C1C3 | AD169 | plaque count | >100 µg/mL |
| Cn1cc(C(=O)O)c(=O)c2cc(N)c(N3CCN(c4nc5ccccc5o4)CC3)cc21 | DAVIS | plaque count | 0.11 µg/mL |
| Cc1cccn2c(CSCc3ccccc3)cnc12 | DAVIS | plaque count | 0.2 µg/mL |
| Nc1ccn(C[C@@H](CO)OCP(=O)(O)O)c(=O)n1 | DAVIS | plaque count | 0.33 µg/mL |
| O=C(COc1cccc2ccccc12)NN=CCc1ccccc1 | DAVIS | plaque count | >20 µg/mL |
| Cc1c(Br)cc(Br)c2ncc(CSCc3ccco3)n12 | AD169 | plaque count | 2.9 µg/mL |
| N#CC1C(c2ccc(Cl)cc2)Nc2ccccc2S1(=O)=O | AD169 (PFA-resistant) | cytopathic effect | 3.2 µg/mL |
| CC(=O)c1ccc(NC(=O)CN2C(=O)c3ccccc3S2(=O)=O)cc1 | AD169 | plaque count | >100 µM |
| Nc1ncnc2c1ncn2CCCC(O)CF | AD169 | cytopathic effect | >50 µg/mL |
| CCOC(=O)/C=C\C=C\[C@H]1O[C@@H](n2ccc(=O)[nH]c2=O)[C@H](O)[C@@H]1O | DAVIS |  | 10 µM |

The last 7 rows once more:

SMILES	strain or isolate	method	result
Nc1ccn(C[C@@H](CO)OCP(=O)(O)O)c(=O)n1	DAVIS	plaque count	0.33 µg/mL
O=C(COc1cccc2ccccc12)NN=CCc1ccccc1	DAVIS	plaque count	>20 µg/mL
Cc1c(Br)cc(Br)c2ncc(CSCc3ccco3)n12	AD169	plaque count	2.9 µg/mL
N#CC1C(c2ccc(Cl)cc2)Nc2ccccc2S1(=O)=O	AD169 (PFA-resistant)	cytopathic effect	3.2 µg/mL
CC(=O)c1ccc(NC(=O)CN2C(=O)c3ccccc3S2(=O)=O)cc1	AD169	plaque count	>100 µM
Nc1ncnc2c1ncn2CCCC(O)CF	AD169	cytopathic effect	>50 µg/mL
CCOC(=O)/C=C\C=C\[C@H]1O[C@@H](n2ccc(=O)[nH]c2=O)[C@H](O)[C@@H]1O	DAVIS		10 µM

ECn: concentration that inhibits the pathogen or its effect by n%. Rows are shuffled and stem from different studies.